The data set deals with T1, Zur (zinc uptake regulator) (UniProt Q6NG23).
T1 sequence (looked up, limits assumed): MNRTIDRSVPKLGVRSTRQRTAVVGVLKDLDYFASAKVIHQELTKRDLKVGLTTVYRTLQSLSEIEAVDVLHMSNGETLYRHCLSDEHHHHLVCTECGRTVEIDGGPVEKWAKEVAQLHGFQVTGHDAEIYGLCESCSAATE
The experiment in a line: EMSA. As to conditions: 100 nM Zur, 1 nM oligo duplex, 10 mM Tris pH 7.5, 55 mM KCl, 1 mM DTT, 10% glycerol, 0.05% NP-40, 100 ug/ml BSA, 0.03 ug/ml salmon sperm DNA, recombinant protein, protein details: His-tag (pET30a), label: 5' biotin on strand 1. Background: A gel shift assay detects complexes by their altered migration in electrophoresis.

The values below come from PMC6711530, “Identification of zinc and Zur-regulated genes in Corynebacterium diphtheriae”.

Construct, isoform or probe ends are uncertain for at least one entry. Weaker means in comparison with the reference protein, sequence or condition of that experiment. Tags and fusion partners may be left off the protein sequences shown. At least one verdict was read from the data and is not stated in words by the source.

As for “CCCGTTTAGTGCGAACTAATTTCATTATGCGGG (double strand) [dip1087 site]”, the binding result (5 uM ZnCl2) is given as “binds”.
For the sequence “CCCTGCACATGACAATCGTTGCCTATAGTGGGG (double strand) [iutE (dip0173) site]”, the binding result (5 uM ZnCl2) is “binds”.
For “CCCAATAAGTGAAAACGGTATCCATTAAGGGGG (double strand) [zrg (dip1486) site]”, the binding result (5 uM ZnCl2) is on record as “binds”.
Regarding “CCCCAATAATGAAAATGATTGTGATGTGCAGGG (double strand) [troA (dip0438) site]”, the binding result reads like this: (5 uM ZnCl2) “binds”; (EDTA up to 250 uM) “binds more weakly”; (no added zinc) “binds”.
Consider “CCCTTGAAATGAGAATGATTATCCGTATGGGGG (double strand) [dip0013 site]”, for which the binding result (5 uM ZnCl2) is “binds”.
Take “CCCCCCTATTGGAATCCGATGTCAATTAACGGG (double strand) [cmrA2 (dip1724) site]”: the binding result (5 uM ZnCl2) was “binds”.
“GGGTCGCAATAAGATTCATTTTCATGACTACCC (double strand) [iutA (dip0169) Zur site]”: the binding result (5 uM ZnCl2) is “binds”, the binding result (EDTA up to 250 uM) is given as “binds more weakly” and the binding result (no added zinc) is reported as “binds”.
As for “CCCTACTAAAGCACATGATTTCCATTAATGGGG (double strand) [dip0092-0093 site]”, the binding result (5 uM ZnCl2) is “binds”.
With “CCCAATTATCGGTAATTATTTTCATTAAAAGGG (double strand) [cmrA (dip2325) site]”, the binding result by setting is: (5 uM ZnCl2) “binds”; (no added zinc) “binds”.
With “GGGCCCTAATTGCAGACTTTTTCATTAACTCCC (double strand) [dip2162 site]”, the binding result (5 uM ZnCl2) is “binds”.
Turning to “CCCTGGTATTGGTTATCTTTTTCATTTTCCGGG (double strand) [dip0442 site]”, under “5 uM ZnCl2”, the binding result was “binds”.
For “CCCTGCAAGTGGTAATTATTTTCAACAATGGGG (double strand) [sidA (dip2161) site]”, the binding result (5 uM ZnCl2) is “binds”.
Regarding “CCCCGTTATTGAAAATGTTGTGCAGTGGTGGGG (double strand) [dip2128 site]”, the binding result (5 uM ZnCl2) was “binds”.
Consider “CCCTTCTAATGGTACCTATTTTCAATAGGTGGG (double strand) [adhA (dip2114) site]”, for which the binding result was “binds” (5 uM ZnCl2) and “binds” (no added zinc).
